Among the data in ChEMBL document CHEMBL5346973 (J Med Chem, 2023) are IC50 values, retold here.

Sequences of proteins named here, by UniProt entry; tags and fusion partners are left off. Residues count along the entry.
UniProt P04756, 21-457 limits assumed: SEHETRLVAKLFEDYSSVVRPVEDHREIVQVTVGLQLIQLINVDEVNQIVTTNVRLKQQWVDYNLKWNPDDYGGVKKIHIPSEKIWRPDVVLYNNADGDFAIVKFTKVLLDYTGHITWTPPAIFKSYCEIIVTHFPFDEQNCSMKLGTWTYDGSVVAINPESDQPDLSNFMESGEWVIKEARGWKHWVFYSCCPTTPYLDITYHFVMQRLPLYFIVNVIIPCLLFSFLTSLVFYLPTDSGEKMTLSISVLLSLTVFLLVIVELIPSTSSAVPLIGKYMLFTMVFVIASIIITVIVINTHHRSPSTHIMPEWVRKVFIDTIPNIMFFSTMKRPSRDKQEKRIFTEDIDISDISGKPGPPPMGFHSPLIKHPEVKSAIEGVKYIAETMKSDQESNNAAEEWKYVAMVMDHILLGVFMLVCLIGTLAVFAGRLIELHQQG
UniProt P09690, 24-501 limits assumed: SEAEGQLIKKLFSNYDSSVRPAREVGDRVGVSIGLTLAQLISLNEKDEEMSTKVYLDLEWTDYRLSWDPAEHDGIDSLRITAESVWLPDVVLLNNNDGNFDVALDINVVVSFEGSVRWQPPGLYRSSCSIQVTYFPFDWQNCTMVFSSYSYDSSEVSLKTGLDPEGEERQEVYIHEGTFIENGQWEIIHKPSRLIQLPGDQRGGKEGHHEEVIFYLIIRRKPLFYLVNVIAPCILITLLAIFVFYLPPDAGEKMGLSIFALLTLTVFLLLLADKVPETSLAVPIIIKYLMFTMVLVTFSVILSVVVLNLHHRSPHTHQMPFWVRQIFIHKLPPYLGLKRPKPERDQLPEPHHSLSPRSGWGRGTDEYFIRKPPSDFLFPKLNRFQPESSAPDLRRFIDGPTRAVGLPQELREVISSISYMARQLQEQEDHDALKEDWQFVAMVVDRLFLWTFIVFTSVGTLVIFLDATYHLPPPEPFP
UniProt P02716, 25-520 limits assumed: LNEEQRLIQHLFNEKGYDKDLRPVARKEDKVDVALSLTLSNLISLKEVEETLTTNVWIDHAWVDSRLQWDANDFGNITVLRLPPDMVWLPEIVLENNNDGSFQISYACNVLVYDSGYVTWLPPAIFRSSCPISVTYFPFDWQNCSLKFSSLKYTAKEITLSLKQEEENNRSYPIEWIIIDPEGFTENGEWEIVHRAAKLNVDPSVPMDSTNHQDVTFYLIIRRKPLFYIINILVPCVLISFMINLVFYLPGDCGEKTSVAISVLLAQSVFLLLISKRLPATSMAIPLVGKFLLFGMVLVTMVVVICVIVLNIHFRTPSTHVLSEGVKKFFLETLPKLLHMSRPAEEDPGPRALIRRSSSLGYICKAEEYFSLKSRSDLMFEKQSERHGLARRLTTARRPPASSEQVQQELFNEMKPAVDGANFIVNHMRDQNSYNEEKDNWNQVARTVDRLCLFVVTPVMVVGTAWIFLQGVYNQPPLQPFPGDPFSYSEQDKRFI
UniProt P20782, 21-493 limits assumed: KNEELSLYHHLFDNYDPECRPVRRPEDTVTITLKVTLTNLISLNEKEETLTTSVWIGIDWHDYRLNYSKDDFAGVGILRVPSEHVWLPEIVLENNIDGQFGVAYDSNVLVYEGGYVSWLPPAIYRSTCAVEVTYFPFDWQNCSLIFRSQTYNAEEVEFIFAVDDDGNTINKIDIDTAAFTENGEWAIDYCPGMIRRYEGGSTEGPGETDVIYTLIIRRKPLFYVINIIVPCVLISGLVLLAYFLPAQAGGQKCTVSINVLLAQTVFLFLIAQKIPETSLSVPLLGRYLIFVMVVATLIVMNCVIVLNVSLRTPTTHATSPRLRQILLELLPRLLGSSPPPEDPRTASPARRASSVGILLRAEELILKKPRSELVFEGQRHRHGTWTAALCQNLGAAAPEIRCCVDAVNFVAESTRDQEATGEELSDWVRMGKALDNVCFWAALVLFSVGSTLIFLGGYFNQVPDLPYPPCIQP

The target in the experiment is Nicotinic acetylcholine receptor alpha1/beta1/epsilon/delta (Mus musculus, UniProt P04756+P09690+P02716+P20782). The experiment can be described thus: Antagonist activity at mouse alpha1beta1deltaepsilon nACh receptor expressed in Xenopus oocyte assessed as inhibition of acetylcholine-induced response at -70 mV holding potential by voltage-clamp based electrophysiological assay.

As usually defined, the IC50 is the concentration that inhibits the measured activity by half.

As for `CC[C@H](C)[C@@H]1NC(=O)[C@H](C)NC(=O)[C@H](CCCNC(=N)N)NC(=O)[C@@H]2CSSC[C@H](NC(=O)[C@H](Cc3ccc(O)cc3)NC(=O)[C@H](CCCNC(=N)N)NC(=O)CNC(=O)[C@H](CO)NC(=O)[C@H](CO)NC(=O)[C@H](CCCNC(=N)N)NC(=O)[C@@H](NC(=O)[C@@H](N)[C@@H](C)O)CSSC[C@@H](C(=O)N[C@H](C(=O)O)C(C)C)NC(=O)[C@H](C)NC(=O)[C@H](CC(=O)O)NC(=O)[C@H]([C@@H](C)O)NC1=O)C(=O)N[C@@H](CCCNC(=N)N)C(=O)N[C@@H](CO)C(=O)N1CCC[C@H]1C(=O)N[C@@H](Cc1ccc(O)cc1)C(=O)N[C@@H](CC(=O)O)C(=O)N[C@@H](CCCNC(=N)N)C(=O)N[C@@H](CCCNC(=N)N)C(=O)N[C@@H](CCCNC(=N)N)C(=O)N[C@@H](CCCNC(=N)N)C(=O)N[C@@H](Cc1ccc(O)cc1)C(=O)N2`, the IC50 stood at 2330 nM.
The value for `CC[C@H](C)[C@@H]1NC(=O)[C@H](CCCNC(=N)N)NC(=O)[C@H](CCCNC(=N)N)NC(=O)[C@@H]2CSSC[C@H](NC(=O)[C@H](Cc3ccc(O)cc3)NC(=O)[C@H](CCCNC(=N)N)NC(=O)CNC(=O)[C@H](CO)NC(=O)[C@H](CO)NC(=O)[C@H](CCCNC(=N)N)NC(=O)[C@@H](NC(=O)[C@H](C)N)CSSC[C@@H](C(=O)N[C@H](C(=O)O)C(C)C)NC(=O)[C@H](C)NC(=O)[C@H](CC(=O)O)NC(=O)[C@H]([C@@H](C)O)NC1=O)C(=O)N[C@@H](CCCNC(=N)N)C(=O)N[C@@H](CO)C(=O)N1CCC[C@H]1C(=O)N[C@@H](Cc1ccc(O)cc1)C(=O)N[C@@H](CC(=O)O)C(=O)N[C@@H](CCCNC(=N)N)C(=O)N[C@@H](CCCNC(=N)N)C(=O)N[C@@H](CCCNC(=N)N)C(=O)N[C@@H](CCCNC(=N)N)C(=O)N[C@@H](Cc1ccc(O)cc1)C(=O)N2` was 1330 nM; that for `CC[C@H](C)[C@@H]1NC(=O)[C@H](CCCNC(=N)N)NC(=O)[C@H](CCCNC(=N)N)NC(=O)[C@@H]2CSSC[C@H](NC(=O)[C@H](Cc3ccc(O)cc3)NC(=O)[C@H](CCCNC(=N)N)NC(=O)CNC(=O)[C@H](CO)NC(=O)[C@H](CO)NC(=O)[C@H](CCCNC(=N)N)NC(=O)[C@@H](NC(=O)[C@@H](N)[C@@H](C)O)CSSC[C@@H](C(=O)N[C@H](C(=O)O)C(C)C)NC(=O)[C@H](C)NC(=O)[C@H](CC(=O)O)NC(=O)[C@H]([C@@H](C)O)NC1=O)C(=O)N[C@@H](C)C(=O)N[C@@H](CO)C(=O)N1CCC[C@H]1C(=O)N[C@@H](Cc1ccc(O)cc1)C(=O)N[C@@H](CC(=O)O)C(=O)N[C@@H](CCCNC(=N)N)C(=O)N[C@@H](CCCNC(=N)N)C(=O)N[C@@H](CCCNC(=N)N)C(=O)N[C@@H](CCCNC(=N)N)C(=O)N[C@@H](Cc1ccc(O)cc1)C(=O)N2` was 470 nM; that for `CC[C@H](C)[C@@H]1NC(=O)[C@H](CCCNC(=N)N)NC(=O)[C@H](CCCNC(=N)N)NC(=O)[C@@H](NC(=O)[C@H](Cc2ccc(O)cc2)NC(=O)[C@H](CCCNC(=N)N)NC(=O)[C@H](CCCNC(=N)N)NC(=O)[C@H](CCCNC(=N)N)NC(=O)[C@H](CCCNC(=N)N)NC(=O)[C@H](CC(=O)O)NC(=O)[C@H](Cc2ccc(O)cc2)NC(=O)[C@@H]2CCCN2C(=O)[C@H](CO)NC(=O)[C@H](CCCNC(=N)N)NC(=O)[C@@H]2CSSC[C@H](NC(=O)[C@@H](N)[C@@H](C)O)C(=O)N[C@@H](CCCNC(=N)N)C(=O)N[C@@H](C)C(=O)N[C@@H](CO)C(=O)NCC(=O)N[C@@H](CCCNC(=N)N)C(=O)N[C@@H](Cc3ccc(O)cc3)C(=O)N2)CSSC[C@@H](C(=O)N[C@H](C(=O)O)C(C)C)NC(=O)[C@H](C)NC(=O)[C@H](CC(=O)O)NC(=O)[C@H]([C@@H](C)O)NC1=O` was 1000 nM.
The value for `CC[C@H](C)[C@@H]1NC(=O)[C@H](CCCNC(=N)N)NC(=O)[C@H](CCCNC(=N)N)NC(=O)[C@@H]2CSSC[C@H](NC(=O)[C@H](Cc3ccc(O)cc3)NC(=O)[C@H](CCCNC(=N)N)NC(=O)CNC(=O)[C@H](CO)NC(=O)[C@H](CO)NC(=O)[C@H](CCCNC(=N)N)NC(=O)[C@@H](NC(=O)[C@@H](N)[C@@H](C)O)CSSC[C@@H](C(=O)N[C@H](C(=O)O)C(C)C)NC(=O)[C@H](C)NC(=O)[C@H](CC(=O)O)NC(=O)[C@H]([C@@H](C)O)NC1=O)C(=O)N[C@@H](CCCNC(=N)N)C(=O)N[C@@H](CO)C(=O)N1CCC[C@H]1C(=O)N[C@@H](Cc1ccc(O)cc1)C(=O)N[C@@H](CC(=O)O)C(=O)N[C@@H](CCCNC(=N)N)C(=O)N[C@@H](C)C(=O)N[C@@H](CCCNC(=N)N)C(=O)N[C@@H](CCCNC(=N)N)C(=O)N[C@@H](Cc1ccc(O)cc1)C(=O)N2` was 1630 nM; that for `CC[C@H](C)[C@@H]1NC(=O)[C@H](CCCNC(=N)N)NC(=O)[C@H](CCCNC(=N)N)NC(=O)[C@@H]2CSSC[C@H](NC(=O)[C@H](Cc3ccc(O)cc3)NC(=O)[C@H](CCCNC(=N)N)NC(=O)CNC(=O)[C@H](CO)NC(=O)[C@H](CO)NC(=O)[C@H](CCCNC(=N)N)NC(=O)[C@@H](NC(=O)[C@@H](N)[C@@H](C)O)CSSC[C@@H](C(=O)N[C@H](C(=O)O)C(C)C)NC(=O)[C@H](C)NC(=O)[C@H](CC(=O)O)NC(=O)[C@H]([C@@H](C)O)NC1=O)C(=O)N[C@@H](CCCNC(=N)N)C(=O)N[C@@H](CO)C(=O)N1CCC[C@H]1C(=O)N[C@@H](C)C(=O)N[C@@H](CC(=O)O)C(=O)N[C@@H](CCCNC(=N)N)C(=O)N[C@@H](CCCNC(=N)N)C(=O)N[C@@H](CCCNC(=N)N)C(=O)N[C@@H](CCCNC(=N)N)C(=O)N[C@@H](Cc1ccc(O)cc1)C(=O)N2` was 520 nM.
With `CC[C@H](C)[C@@H]1NC(=O)[C@H](CCCNC(=N)N)NC(=O)[C@H](CCCNC(=N)N)NC(=O)[C@@H](NC(=O)[C@H](Cc2ccc(O)cc2)NC(=O)[C@H](CCCNC(=N)N)NC(=O)[C@H](CCCNC(=N)N)NC(=O)[C@H](CCCNC(=N)N)NC(=O)[C@H](CCCNC(=N)N)NC(=O)[C@H](CC(=O)O)NC(=O)[C@H](Cc2ccc(O)cc2)NC(=O)[C@@H]2CCCN2C(=O)[C@H](CO)NC(=O)[C@H](CCCNC(=N)N)NC(=O)[C@@H]2CSSC[C@H](NC(=O)[C@@H](N)[C@@H](C)O)C(=O)N[C@@H](CCCNC(=N)N)C(=O)N[C@@H](CO)C(=O)N[C@@H](CO)C(=O)NCC(=O)N[C@@H](C)C(=O)N[C@@H](Cc3ccc(O)cc3)C(=O)N2)CSSC[C@@H](C(=O)N[C@H](C(=O)O)C(C)C)NC(=O)[C@H](C)NC(=O)[C@H](CC(=O)O)NC(=O)[C@H]([C@@H](C)O)NC1=O` the figure was 2930 nM; with `CC[C@H](C)[C@@H]1NC(=O)[C@H](CCCNC(=N)N)NC(=O)[C@H](CCCNC(=N)N)NC(=O)[C@@H](NC(=O)[C@H](Cc2ccc(O)cc2)NC(=O)[C@H](CCCNC(=N)N)NC(=O)[C@H](C)NC(=O)[C@H](CCCNC(=N)N)NC(=O)[C@H](CCCNC(=N)N)NC(=O)[C@H](CC(=O)O)NC(=O)[C@H](Cc2ccc(O)cc2)NC(=O)[C@@H]2CCCN2C(=O)[C@H](CO)NC(=O)[C@H](CCCNC(=N)N)NC(=O)[C@@H]2CSSC[C@H](NC(=O)[C@@H](N)[C@@H](C)O)C(=O)N[C@@H](CCCNC(=N)N)C(=O)N[C@@H](CO)C(=O)N[C@@H](CO)C(=O)NCC(=O)N[C@@H](CCCNC(=N)N)C(=O)N[C@@H](Cc3ccc(O)cc3)C(=O)N2)CSSC[C@@H](C(=O)N[C@H](C(=O)O)C(C)C)NC(=O)[C@H](C)NC(=O)[C@H](CC(=O)O)NC(=O)[C@H]([C@@H](C)O)NC1=O`, 6290 nM; with `CC[C@H](C)[C@@H]1NC(=O)[C@H](CCCNC(=N)N)NC(=O)[C@H](CCCNC(=N)N)NC(=O)[C@@H]2CSSC[C@H](NC(=O)[C@H](C)NC(=O)[C@H](CCCNC(=N)N)NC(=O)CNC(=O)[C@H](CO)NC(=O)[C@H](CO)NC(=O)[C@H](CCCNC(=N)N)NC(=O)[C@@H](NC(=O)[C@@H](N)[C@@H](C)O)CSSC[C@@H](C(=O)N[C@H](C(=O)O)C(C)C)NC(=O)[C@H](C)NC(=O)[C@H](CC(=O)O)NC(=O)[C@H]([C@@H](C)O)NC1=O)C(=O)N[C@@H](CCCNC(=N)N)C(=O)N[C@@H](CO)C(=O)N1CCC[C@H]1C(=O)N[C@@H](Cc1ccc(O)cc1)C(=O)N[C@@H](CC(=O)O)C(=O)N[C@@H](CCCNC(=N)N)C(=O)N[C@@H](CCCNC(=N)N)C(=O)N[C@@H](CCCNC(=N)N)C(=O)N[C@@H](CCCNC(=N)N)C(=O)N[C@@H](Cc1ccc(O)cc1)C(=O)N2`, 610 nM.
In the case of `CC[C@H](C)[C@@H]1NC(=O)[C@H](CCCNC(=N)N)NC(=O)[C@H](CCCNC(=N)N)NC(=O)[C@@H]2CSSC[C@H](NC(=O)[C@H](Cc3ccc(O)cc3)NC(=O)[C@H](CCCNC(=N)N)NC(=O)CNC(=O)[C@H](CO)NC(=O)[C@H](CO)NC(=O)[C@H](CCCNC(=N)N)NC(=O)[C@@H](NC(=O)[C@@H](N)[C@@H](C)O)CSSC[C@@H](C(=O)N[C@H](C(=O)O)C(C)C)NC(=O)[C@H](C)NC(=O)[C@H](CC(=O)O)NC(=O)[C@H]([C@@H](C)O)NC1=O)C(=O)N[C@@H](CCCNC(=N)N)C(=O)N[C@@H](C)C(=O)N1CCC[C@H]1C(=O)N[C@@H](Cc1ccc(O)cc1)C(=O)N[C@@H](CC(=O)O)C(=O)N[C@@H](CCCNC(=N)N)C(=O)N[C@@H](CCCNC(=N)N)C(=O)N[C@@H](CCCNC(=N)N)C(=O)N[C@@H](CCCNC(=N)N)C(=O)N[C@@H](Cc1ccc(O)cc1)C(=O)N2`, the IC50 stood at 1290 nM.
The value for `CC[C@H](C)[C@@H]1NC(=O)[C@H](CCCNC(=N)N)NC(=O)[C@H](CCCNC(=N)N)NC(=O)[C@@H]2CSSC[C@H](NC(=O)[C@H](Cc3ccc(O)cc3)NC(=O)[C@H](CCCNC(=N)N)NC(=O)CNC(=O)[C@H](CO)NC(=O)[C@H](CO)NC(=O)[C@H](CCCNC(=N)N)NC(=O)[C@@H](NC(=O)[C@H](C)N)CSSC[C@@H](C(=O)N[C@H](C(=O)O)C(C)C)NC(=O)[C@H](C)NC(=O)[C@H](C)NC(=O)[C@H]([C@@H](C)O)NC1=O)C(=O)N[C@@H](CCCNC(=N)N)C(=O)N[C@@H](CO)C(=O)N1CCC[C@H]1C(=O)N[C@@H](Cc1ccc(O)cc1)C(=O)N[C@@H](CC(=O)O)C(=O)N[C@@H](CCCNC(=N)N)C(=O)N[C@@H](CCCNC(=N)N)C(=O)N[C@@H](CCCNC(=N)N)C(=O)N[C@@H](CCCNC(=N)N)C(=O)N[C@@H](Cc1ccc(O)cc1)C(=O)N2` was 1530 nM.
